Legend:
Lewis Lung Carcinoma = assay: Lewis lung carcinoma, s.c. implant, IP treatment; format: in vivo, mice
B16 Melanoma = assay: s.c. B16 melanoma; format: in vivo, mice
[1] = 30 mg/kg/dose IP, Day 2 Q5 min × 7
[2] = 200 mg/kg/dose IP, Day 2 single dose
[3] = dosage 30 (mg mg^-1), Day 2 Q5 min × 7
[4] = dosage 200 (mg mg^-1), Day 2 single dose

NP(=O)(O)N(CCCl)CCCl
% ILS (Lewis Lung Carcinoma; [1]): 17%
Log kill total (Lewis Lung Carcinoma; [1]): 1.5
T-C (tumor growth delay) (Lewis Lung Carcinoma; [1]): 6.1 days
% ILS (Lewis Lung Carcinoma; [2]): 15%
Log kill total (Lewis Lung Carcinoma; [2]): 1.2
T-C (tumor growth delay) (Lewis Lung Carcinoma; [2]): 4.9 days
% ILS (B16 Melanoma; [3]): 17%
T-C (B16 Melanoma; [3]): 6.1 days
% ILS (B16 Melanoma; [4]): 15%
T-C (B16 Melanoma; [4]): 4.9 days

— patent US8664201B2 (priority 2008, dated 2014)
